One compound from paper PMC11305400, “Multiple transatlantic incursions of highly pathogenic avian influenza clade 2.3.4.4b A(H5N5) virus into North America and spillover to mammals” (2024) can be followed below.

Assay [1] relates to NA (neuraminidase) of A/American_Crow/PEI/FAV-0035-6/2023 (H5N5).
Assay [2] deals with NA (neuraminidase) of A/Raccoon/PEI/FAV-0193-1/2023 (H5N5).

For orientation: IC50 means the concentration that inhibits the measured activity by half. On to `CCC(CC)[C@H](NC(C)=O)[C@@H]1[C@H](O)[C@@H](C(=O)O)C[C@H]1N=C(N)N`, for which the concentration for half-maximal inhibition (IC50) in assay [1] and in assay [2] was 80 pM throughout.
